PubChem BioAssay AID504761, Drosophila RNAi Screening Center | 2011
Test: 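Genome-wide fly cell screen for genes dengue virus requires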 (primary screen). Cell system: D.Mel-2 cells from Drosophila. Reagents: long dsRNA against Drosophila genes. Conditions: infection with dengue virus type 2; dose and infection time not stated. Measurement: 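Cells stained for dengue envelope protein and imaged; percent of infected cells per well on duplicate plates, ranked by infection, with stained nuclei counted for cell number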. Scale: infection score: higher = more virus-infected cells; cell count: higher = more cells in the well. Call rule: 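Low infection ranks in the two replicates (chance level up to 0.065) followed by a retest with a 1.5-fold or larger significant decrease, p below 0.05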. Meaning of the calls: active = confirmed: knock-down lowers infection; inactive = not picked or not confirmed.
The deposit covers about 22,000 reagents; shown is an unselected part of those that have a named target and a result. Over the whole deposit, 116 (0.52%) were called active. 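Calls depend on retest data that are not deposited; infection was ranked per plate without normalising between plates; the unit of the infection score is not given.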 Raw values vary from plate to plate and are shown uncorrected. Names joined by + are all predicted targets of the reagent. No sequences are given here. The record does not give: the amount of reagent, the time to read-out.

The first 2 entries as a preview:
| gene | dsRNA | infection score, replicate 1 | infection score, replicate 2 | cell count, replicate 1 | cell count, replicate 2 | Call |
| --- | --- | --- | --- | --- | --- | --- |
| Rpt3R | DRSC16501 | 8.98 | 10.6 | 5792 | 5716 | inactive |
| Rpt3R | DRSC25067 | 3 | 4.09 | 7265 | 5897 | inactive |

The listing, from the first entry:
| gene | dsRNA | infection score, replicate 1 | infection score, replicate 2 | cell count, replicate 1 | cell count, replicate 2 | Call |
| --- | --- | --- | --- | --- | --- | --- |
| Rpt3R | DRSC16501 | 8.98 | 10.6 | 5792 | 5716 | inactive |
| Rpt3R | DRSC25067 | 3 | 4.09 | 7265 | 5897 | inactive |
| CG6295 | DRSC16012 | 1.82 | 1.89 | 5771 | 6023 | inactive |
| CG6295 | DRSC24229 | 24.5 | 28.7 | 6161 | 6169 | inactive |
| CanB2 | DRSC07355 | 12.9 | 4.44 | 6166 | 6348 | inactive |
| CanB2 | DRSC27440 | 4.75 | 3.81 | 6925 | 6513 | inactive |
| CG30375 | DRSC06834 | 12.4 | 9.38 | 5320 | 6439 | inactive |
| CG15729 (retired record) | DRSC19695 | 2.62 | 2.61 | 6562 | 6710 | inactive |
| CG15729 (retired record) | DRSC29662 | 18.3 | 19.9 | 4683 | 3940 | inactive |
| Ugt35E2 | DRSC16083 | 2.13 | 7.58 | 6606 | 6531 | inactive |
| Ugt35E2 | DRSC27356 | 6.69 | 23.3 | 6708 | 6169 | inactive |
| Pgam5-2 | DRSC04278 | 5.62 | 5.25 | 6756 | 6705 | inactive |
| CG6614 | DRSC02974 | 7.42 | 2.8 | 6062 | 6295 | inactive |
| spri | DRSC17984 | 8.09 | 19.8 | 5671 | 5246 | inactive |
| spri | DRSC17985 | 5.03 | 11.8 | 5442 | 5764 | inactive |
| spri | DRSC17986 | 4.64 | 22.7 | 5599 | 5797 | inactive |
| spri | DRSC17989 | 1.85 | 4.75 | 6102 | 6131 | inactive |
| spri | DRSC22927 | 0.89 | 2.09 | 6618 | 7314 | inactive |
| spri | DRSC28814 | 31.2 | 25.1 | 5716 | 3158 | inactive |
| CG32454 | DRSC11652 | 6.72 | 8.47 | 2350 | 6833 | inactive |
| CG1607 | DRSC15130 | 1.5 | 2.52 | 6070 | 5953 | inactive |
| CG1607 | DRSC27010 | 6.16 | 3.99 | 2175 | 4090 | inactive |
| scpr-B | DRSC15200 | 8.15 | 7.09 | 6932 | 6816 | inactive |
| Dtd | DRSC15362 | 12 | 19.6 | 6678 | 6997 | inactive |
| eIF2Bbeta | DRSC18465 | 11.8 | 16.5 | 5030 | 5366 | inactive |
| eIF2Bbeta | DRSC28495 | 11.8 | 8.9 | 4720 | 1168 | inactive |
| CG3368 | DRSC15485 | 5.19 | 3.69 | 6860 | 6635 | inactive |
| CG4714 | DRSC06883 | 19.5 | 4.37 | 6109 | 6431 | inactive |
| Mgat3 | DRSC01305 | 5.78 | 4.25 | 6318 | 5889 | inactive |
| Mgat3 | DRSC29398 | – | 10.1 | 262 | 2665 | inactive |
| odd | DRSC23024 | 2.38 | 5.05 | 5888 | 6395 | inactive |
| CG17364 | DRSC10269 | 2.9 | 8.78 | 5798 | 6332 | inactive |
| CG17364 | DRSC10270 | 6.18 | 2.9 | 6355 | 6528 | inactive |
| CG17364 | DRSC22689 | 3.12 | 1.03 | 6817 | 6719 | inactive |
| CG17364 | DRSC29363 | 17.3 | 8.66 | 5943 | 5508 | inactive |
| CG17931 + CG42446 | DRSC15293 | 8.8 | 9.09 | 6264 | 6097 | inactive |
| Sap-r | DRSC16849 | 5.59 | 6.56 | 6354 | 5732 | inactive |
| Sap-r | DRSC21916 | 2.11 | 21.3 | 6296 | 2841 | inactive |
| Sap-r | DRSC27246 | 9.39 | 3.28 | 6105 | 5950 | inactive |
| CG8299 | DRSC07139 | 7.12 | 15.9 | 6646 | 6194 | inactive |
| CG8299 | DRSC25580 | 10.5 | 8.77 | 3399 | 2986 | inactive |
| CG17377 | DRSC00950 | 2.15 | 9.73 | 5956 | 6679 | inactive |
| CG17377 | DRSC02615 | 16.5 | 16.5 | 5457 | 5470 | inactive |
| CG17377 | DRSC21811 | 1.62 | 1.11 | 5433 | 5490 | inactive |
| CG17377 | DRSC28817 | 11.2 | 0.49 | 2684 | 411 | inactive |
| CG32808 | DRSC17689 | 2.56 | 0.18 | 6166 | 6078 | inactive |
| CG32808 | DRSC28726 | 22.1 | 5.71 | 3983 | 1279 | inactive |
| Stt3A | DRSC20514 | 2.88 | 2.25 | 6448 | 6743 | inactive |
| Stt3A | DRSC24884 | 1.56 | 1.54 | 6715 | 6550 | inactive |
| NaPi-III | DRSC10893 | 8.3 | – | 5966 | 229 | inactive |
| NaPi-III | DRSC22953 | 2.22 | 1.84 | 5902 | 6470 | inactive |
| NaPi-III | DRSC28299 | 11 | 9.5 | 5491 | 3380 | inactive |
| NaPi-III | DRSC28977 | 4.92 | 18.4 | 5018 | 4663 | inactive |
| NLaz | DRSC21521 | 1.78 | 2.37 | 5954 | 6208 | inactive |
| Got1 | DRSC07177 | 9.67 | 9.81 | 5503 | 5689 | inactive |
| Got1 | DRSC26159 | 6.16 | 1.62 | 6431 | 5812 | inactive |
| RhoGAP5A | DRSC18294 | 5.09 | 3.22 | 5875 | 6903 | inactive |
| RhoGAP5A | DRSC24778 | 3.7 | 2.21 | 6155 | 6160 | inactive |
